# PubChem BioAssay AID1259414 | Drosophila RNAi Screening Center | 2018
# Test: 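Host factors increasing or decreasing Wolbachia levels in cultured fly cells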 (primary screen)
# System: Drosophila JW18 cells infected with Wolbachia
# Reagent: long dsRNA against Drosophila genes, 0.25 µg dsRNA per well of a 384-well plate
# Duration: 5 days
# Conditions: cells persistently infected with Wolbachia before knock-down; no added drug
# Read-out: 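Imaged fluorescence in situ signal for Wolbachia 23S rRNA per DAPI-counted host cell, given as a robust z-score within each plate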
# Reading the numbers: Wolbachia per cell robust z: higher = more Wolbachia per host cell than the plate typical
# Hit rule: 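Hit when robust z is 1.5 or more, or -1.5 or less, in at least two of three replicates; excludes dsRNAs with several or no targets, genes not expressed in JW18 and well A1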
# The deposit covers about 24,000 reagents; shown is a random part of those with a known target gene and a result. Of all reagents, about 1,210 (5%) were called active. 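Inactive calls also include excluded dsRNAs with several or no targets, genes unexpressed in JW18, and well A1, regardless of score.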 Entries without a mark were called inactive. Names joined by + are all predicted targets of the reagent.
gene,amplicon,"Wolbachia per cell robust z, rep 1","Wolbachia per cell robust z, rep 2","Wolbachia per cell robust z, rep 3"
Cht6,DRSC18001,0.595,-4.62,1.2
Cht6,DRSC18253,0.361,0.564,-0.277
Cht6,DRSC23211,-1.37,0.271,1.08
Cht6,DRSC28095,-0.553,0.314,-0.783
Bap111,DRSC18419,1.79,0.28,1.33
Bap111,DRSC28822,1.07,-0.501,0.572
unk,DRSC17093,-0.256,-0.0283,-0.553
unk,DRSC28754,-1.77 (active),-1.74,-0.83
CG33477,DRSC22934,0.809,-0.352,0.886
RpL28 + snoRNA:Or-CD12,DRSC08293,3.61,2.83,3.11
PolD3,DRSC01961,-9.85,-0.031,-9.48
PolD3,DRSC28401,-0.806,0.39,0.271
DJ-1alpha,DRSC07005,0.0916,-0.955,-0.307
sug,DRSC06855,0.401,0.307,0.671
sug,DRSC29599,-1.76,1.55,1.04
Dgk,DRSC05064,-0.0412,-0.788,-0.497
Dgk,DRSC05065,0.352,0.286,0.348
Dgk,DRSC06171,0.0639,-6.15,-0.585
Dgk,DRSC06782,0.944,0,1.15
Dgk,DRSC25166,0.746,-0.262,-0.365
Mst57Dc,DRSC16745,-0.00809,-2.39,0.427
AIF,DRSC00696,-0.447,0.274,0.865
CG6870,DRSC02998,-0.685,-0.659,1.55
CG6870,DRSC25586,-0.777,2.27,0.913
norpA,DRSC18806,-0.73,-0.712,1.03
norpA,DRSC40745,-1.75,0.897,0.516
CG4872,DRSC19921,-0.244,-0.0974,-1.38
aay,DRSC11320,-5.76 (active),0.756,-4.45
GluRS-m,DRSC10431,-0.133,0.274,-0.7
GluRS-m,DRSC26953,0.188,-0.891,0.292
CG11723,DRSC00324,1.16,-0.27,-1.28
CG11723,DRSC24890,0.0137,0.267,0.304
CrebB,DRSC20232,0.871,1.01,1.24
CrebB,DRSC23558,0.555,-6.83,-1.14
feo,DRSC19398,0.946,0.739,0.832
feo,DRSC23773,0.565 (active),1.53,2.6
omd,DRSC16507,2.33 (active),2.62,-0.413
omd,DRSC29369,1.11,-4.44,0.636
CG13026,DRSC09906,-1.32,-0.343,-0.0171
CG14440,DRSC23008,0.852,0.217,-2.62
CG14440,DRSC23009,0.485,-0.0493,-3.69
CG14440,DRSC25806,0.0718,-0.566,0.58
Nepl17,DRSC14880,-0.547,0.159,-0.912
PTP-ER,DRSC04636,1.12,-7.05,-0.956
PTP-ER,DRSC23325,0.823,2.28,1.15
PTP-ER,DRSC28263,-0.602,0.567,0.491
zyd,DRSC20716,0.573,0.403,0.988
eIF4G2,DRSC14207,0.19,1.34,1.05
eIF4G2,DRSC21739,-1.27,0.207,-0.164
CG9760,DRSC11101,0.772,-0.153,1.2
CG9760,DRSC28846,-0.679,0.117,-0.288
CG1789,DRSC18140,0.671,0.131,-0.136
CG1789,DRSC28967,0.165,0.22,0.0307
CecA1,DRSC16603,0.624,-3.64,-5.32
CTCF,DRSC11004,0.262,-0.187,-7.89
CTCF,DRSC28022,-0.00431,0.309,-1.54
ver,DRSC10125,-0.0739,-2.42,-0.305
ver,DRSC28113,0.485,-0.819,0.539
dpr13,DRSC06160,-3.16,-0.859,0.144
dpr13,DRSC06464,0.0946,-0.706,0.462
dpr13,DRSC24196,-0.281,0.517,0.564
nonC,DRSC18366,-0.779,0.0177,-0.365
nonC,DRSC18367,0.524,-0.416,-0.718
CG33986,DRSC37802,0.356,0.895,0.606
CG10151,DRSC05974,-1.94,-0.937,-1.05
CG10151,DRSC27429,-6.73,-1.06,-1.17
wntD,DRSC16423,0.58,0.543,1.84
wntD,DRSC28538,1.2,-0.774,0.974
Klp3A,DRSC18676,-0.308,-0.426,-0.24
Klp3A,DRSC21625,0.155,0.526,0.153
CG13312,DRSC09983,-2.77,1.39,0.652
CG13312,DRSC26729,-1.94,0.0234,-0.687
CG34205,DRSC04149,-0.621,-1.89,-1.45
CG34205,DRSC22823,-2.3,-2.17,-0.775
Cp36,DRSC18452,-0.352,-0.497,0.839
Cp36,DRSC27244,-4.55,-1.93,-0.0778
ranshi,DRSC16564,0.755,-2.41,0.673
ranshi,DRSC29605,-2.11 (active),0.187,-2.21
CG34305,DRSC38830,-0.387,0.627,-0.181
Septin4,DRSC20205,0.918,1.08,-1.55
Septin4,DRSC25409,-1.12,-0.432,-1.47
LeuRS-m,DRSC08595,-9.6 (active),0.108,-3.89
LeuRS-m,DRSC28690,-1.19,-0.649,0.565
CAH9,DRSC15963,0.709,-2.34,-0.368
CAH9,DRSC29677,-0.203,-0.416,0.328
CG11279,DRSC09837,0.555,0.79,-0.262
Ubc2,DRSC01137,0.237,-2.32,-0.432
Ubc2,DRSC03468,-0.147,0.332,0.322
Ubc2,DRSC29062,-1.53 (active),-1.67,-1.23

4 of these entries, reformatted.
{"gene": "wntD", "amplicon": "DRSC28538", "Wolbachia per cell robust z, rep 1": 1.2, "Wolbachia per cell robust z, rep 2": -0.774, "Wolbachia per cell robust z, rep 3": 0.974}
{"gene": "Klp3A", "amplicon": "DRSC18676", "Wolbachia per cell robust z, rep 1": -0.308, "Wolbachia per cell robust z, rep 2": -0.426, "Wolbachia per cell robust z, rep 3": -0.24}
{"gene": "Klp3A", "amplicon": "DRSC21625", "Wolbachia per cell robust z, rep 1": 0.155, "Wolbachia per cell robust z, rep 2": 0.526, "Wolbachia per cell robust z, rep 3": 0.153}
{"gene": "CG13312", "amplicon": "DRSC09983", "Wolbachia per cell robust z, rep 1": -2.77, "Wolbachia per cell robust z, rep 2": 1.39, "Wolbachia per cell robust z, rep 3": 0.652}
